The target in one assay is PpAChE1 (Pardosa pseudoannulata, UniProt V5QQC6). As to the kind of experiment: Inhibition of recombinant PpAChE1 enzyme activity (IC50, ki). Particulars: read-out: IC50 on BTC hydrolysis, PpAChE1 expressed in Sf9 cells, 10 min incubation with inhibitor.
The target in the next assay is PpAChE4 (Pardosa pseudoannulata, UniProt A0A1B1FIW2). Briefly: Inhibition of recombinant PpAChE4 enzyme activity (IC50, ki). Particulars: not completely inhibited even at very high concentrations.

Sequences of proteins named here, by UniProt entry; tags and fusion partners are left off. Residues count along the entry.
UniProt V5QQC6, 26-608 limits assumed: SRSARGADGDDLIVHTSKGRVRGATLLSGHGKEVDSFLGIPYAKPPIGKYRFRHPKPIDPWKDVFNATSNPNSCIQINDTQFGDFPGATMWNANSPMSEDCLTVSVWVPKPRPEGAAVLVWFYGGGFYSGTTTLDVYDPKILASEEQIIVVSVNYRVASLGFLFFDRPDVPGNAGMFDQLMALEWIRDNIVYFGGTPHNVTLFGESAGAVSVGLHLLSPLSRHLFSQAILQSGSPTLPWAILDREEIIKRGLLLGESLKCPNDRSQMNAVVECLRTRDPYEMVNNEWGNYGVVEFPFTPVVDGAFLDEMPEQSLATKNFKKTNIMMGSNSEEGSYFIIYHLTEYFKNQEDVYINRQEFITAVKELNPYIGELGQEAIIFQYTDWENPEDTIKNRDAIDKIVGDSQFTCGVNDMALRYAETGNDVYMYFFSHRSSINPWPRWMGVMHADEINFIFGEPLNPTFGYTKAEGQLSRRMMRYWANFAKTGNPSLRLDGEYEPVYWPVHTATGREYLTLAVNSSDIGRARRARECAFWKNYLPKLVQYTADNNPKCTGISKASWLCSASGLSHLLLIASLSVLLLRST
UniProt A0A1B1FIW2, 23-545 limits assumed: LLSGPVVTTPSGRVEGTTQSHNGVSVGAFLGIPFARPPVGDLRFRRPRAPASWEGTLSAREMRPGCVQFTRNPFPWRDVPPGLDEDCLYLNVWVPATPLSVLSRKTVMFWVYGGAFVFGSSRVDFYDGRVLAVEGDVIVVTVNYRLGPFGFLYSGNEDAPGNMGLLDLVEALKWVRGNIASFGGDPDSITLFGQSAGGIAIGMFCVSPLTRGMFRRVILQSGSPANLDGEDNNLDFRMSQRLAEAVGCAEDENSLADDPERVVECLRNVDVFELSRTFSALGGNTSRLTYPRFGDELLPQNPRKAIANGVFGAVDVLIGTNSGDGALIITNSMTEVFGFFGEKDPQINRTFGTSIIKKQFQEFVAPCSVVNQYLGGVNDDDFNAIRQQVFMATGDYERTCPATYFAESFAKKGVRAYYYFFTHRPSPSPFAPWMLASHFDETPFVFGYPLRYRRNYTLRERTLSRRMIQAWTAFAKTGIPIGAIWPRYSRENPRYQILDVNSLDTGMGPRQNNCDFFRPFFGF

The record followed here is article PMC4919072, “Identification and Biochemical Properties of Two New Acetylcholinesterases in the Pond Wolf Spider (Pardosa pseudoannulata)” (2016).

As usually defined, the IC50 is the point on the concentration scale where inhibition reaches its midpoint.

For `CC(C)NP(=O)(NC(C)C)OP(=O)(NC(C)C)NC(C)C`, the IC50 at PpAChE1 was over 200 µM. For the same compound, on PpAChE4, the “Inhibition against ATC hydrolysis (in words)” value is given as “very weak inhibition”.
